Pooled drug test results. Numbers come from NIAID ChemDB, via PubChem.

Shared fields: enzyme or target tests; agent: Hepatitis C virus; protein: NS5B polymerase

Inhibition is in % at the dose shown (toxicity tests: loss of growth or viability).

smiles,read-out,tested at,strain or isolate,result
Cc1nc(-c2ccc(Cl)cc2)sc1-c1ccc2cc(-c3nc4cc(C(=O)O)ccc4n3C3CCCCC3)ccc2n1,inhibition,100 µM,,103%
CSc1nc2ccc(NC(=O)C3(NC(=O)c4ccc5c(c4)nc(-c4ccoc4)n5C4CCCCC4)CCCC3)cc2s1,IC50,,,0.5–5 µM
COc1ccc(C(NC(=O)c2ccc3c(c2)nc(-c2ccoc2)n3C2CCCCC2)C(=O)O)cc1OC,IC50,,,<1 µM
O=C(NC(Cc1ccc(O)cc1)C(=O)O)c1ccc2c(c1)nc(-c1ccc3nc(-c4ccccc4)cnc3c1)n2C1CCCCC1,inhibition,33 µM,,96.88%
CCC[C@]1(CC(=O)O)OCCc2c1[nH]c1c(C)ccc(C#N)c21,IC50,,BB7 genotype 1B,0.4 µM
O=C(NC(CO)C(=O)O)c1ccc2c(c1)nc(-c1ccc3ncccc3c1)n2C1CCCCC1,inhibition,100 µM,,97.54%
O=C(NC1(C(=O)Nc2ccc3oc(=O)ccc3c2)CCCC1)c1ccc2c(c1)nc(-c1ccoc1)n2C1CCCCC1,IC50,,,5–25 µM
O=C(N[C@H](C(=O)O)c1c[nH]c2ccc(O)cc12)c1ccc2c(c1)nc(/C=C/c1ccc([N+](=O)[O-])cc1)n2C1CCCCC1,IC50,,,1–5 µM
O=C(O)c1ccc2c(c1)nc(-c1ccc3nc(C(=O)N(c4ccc(Cl)cc4)C4CCCCC4)ccc3c1)n2C1CCCCC1,inhibition,33 µM,,87.53%
COc1ccc([C@@H](C)NC(=O)c2ccc3c(c2)nc(-c2ccccn2)n3C2CCCCC2)cc1OC,IC50,,,1–5 µM
Cc1cc2c(cc1C(=O)N[C@H](C)C(=O)Nc1ccc(/C=C/C(=O)O)cc1)nc(-c1ccoc1)n2C1CCCCC1,IC50,,,0.5–5 µM
[N-]=[N+]=Nc1ccc(C(=O)NCCC(=O)COc2ccc(-c3nc4cc(C(=O)N[C@@H](Cc5c[nH]c6ccc(OCC(=O)O)cc56)C(=O)O)ccc4n3C3CCCCC3)cc2)cc1,IC50,,,<1 µM
C[C@@H](NC(=O)c1ccc2c(c1)nc(-c1ccoc1)n2C1CCCCC1)C(=O)Nc1ccc2oc(C(=O)O)cc2c1,IC50,,,<0.5 µM
C=C[C@H]1C(C(=O)O)[C@@H]1NC(=O)c1ccc2c(c1)nc(-c1ccccn1)n2C1CCCCC1,IC50,,,10–25 µM
C[C@@H]1CCCC[C@H]1n1c(-c2ccccc2)nc2cc(C(=O)NC3(C(=O)Nc4ccc(/C=C/C(=O)O)cc4)CCCC3)ccc21,IC50,,,0.5–5 µM

Repeating the first 2 entries:

smiles,read-out,tested at,strain or isolate,result
Cc1nc(-c2ccc(Cl)cc2)sc1-c1ccc2cc(-c3nc4cc(C(=O)O)ccc4n3C3CCCCC3)ccc2n1,inhibition,100 µM,,103%
CSc1nc2ccc(NC(=O)C3(NC(=O)c4ccc5c(c4)nc(-c4ccoc4)n5C4CCCCC4)CCCC3)cc2s1,IC50,,,0.5–5 µM

a–b is a range or a potency band. Neighbouring rows are from separate reports. ICn: concentration for n% inhibition. Blank or dashed fields: not listed here.